Test results reported in PubChem BioAssay AID504690 (Sanford-Burnham Center for Chemical Genomics, 2011).
The list shows a part of the results, in another mix than the full data. Activity calls are given as the source filed them.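 Rule for the calls: active = inhibition reaching at least a set limit at 20 µM in the primary screen (cut at about 59% in these data); inactive = the rest.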

System: glucose-6-phosphate dehydrogenase-6-phosphogluconolactonase (Plasmodium falciparum 3D7)
Experiment: inhibition of malaria parasite G6PD (PfGluPho) – biochemical, fluorescence intensity, uHTS, primary screen (AID 504690);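 note: 0% = DMSO wells with substrate and 100% = DMSO wells lacking glucose-6-phosphate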
Details: PfGluPho enzyme, NADPH resazurin-diaphorase fluorescence; at 20 µM; active compounds read high

| SMILES | inhibition |
| --- | --- |
| CCN1CCC(Nc2cccc(F)c2)CC1 | inactive: -16.1% |
| Cc1ccccc1NC1(C#N)CCN(Cc2ccccc2)CC1 | inactive: 8.29% |
| Cn1c(=O)[nH]cc(N(CCCl)CCCl)c1=O | inactive: 12.7% |
| CN(C)c1ccc(C(=O)NCC2(N3CCCCC3)CCCCC2)cc1 | inactive: -16.6% |
| O=C(NCC1(N2CCCCC2)CCCCC1)c1ccco1 | inactive: 6.26% |
| CC(=O)N(c1ccccc1)C1CCNCC1 | inactive: -0.57% |
| COc1cc(OC)cc(C(=O)NCC2(N3CCCCC3)CCCCC2)c1 | inactive: -4.09% |
| Fc1ccccc1NC1CCN(Cc2ccccc2)CC1 | inactive: -3.71% |
| Cc1ccc(C(=O)NCC2(N3CCCCC3)CCCCC2)o1 | inactive: -5.08% |
| Cc1ccc(NC2(C#N)CCN(Cc3ccccc3)CC2)cc1 | inactive: 11.2% |
| COc1cccc(C(=O)N(c2cc(C)cc(C)c2)C2CCN(C(=O)OC(C)(C)C)CC2)c1 | inactive: 19.9% |
| COc1cc(OC)cc(C(=O)NCC2(N3CCOCC3)CCCCC2)c1 | inactive: 0.07% |
| CCC(CO)(C(=O)OC1CN2CCC1CC2)c1ccccc1 (stereo unspecified) | inactive: -13.6% |
| CN1CCC(Nc2ccc(Cl)cc2)CC1 | inactive: 2.29% |
| CN1CCC(Nc2ccc(F)c(Cl)c2)CC1 | inactive: -17.9% |
| CCOc1ncccc1C(=O)NCC1(N2CCOCC2)CCCCC1 | inactive: -8.7% |
| O=C(O)C1(Nc2ccccc2)CCN(Cc2ccccc2)CC1 | inactive: 0.66% |
| CC(C)(C)OC(=O)N1CCC(Nc2ccccc2)CC1 | inactive: -5.69% |
| CCCOc1ccc(C(=O)NCC2(N(C)C)CCCCC2)cc1 | inactive: -3.04% |
| CCOC(=O)N1CCC(Nc2ccc(C)cc2)CC1 | inactive: 0.87% |
| N/C(=N\O)c1c(N)no[n+]1[O-] | inactive: -5.13% |
| O=C(OC1CN2CCC1CC2)C1c2ccccc2C=Cc2ccccc21 (stereo unspecified) | inactive: -10.9% |
| CCc1cc(C(=O)NCC2(N3CCCCC3)CCCCC2)sc1C | inactive: 7.45% |
| COc1cc(C(=O)NCC2(N3CCOCC3)CCCCC2)cc(OC)c1C | inactive: 12.8% |
| O=C(NCC1(N2CCOCC2)CCCCC1)c1cc(Br)ccc1Cl | inactive: -4.81% |
| COc1ccc(C(=O)NCC2(N3CCOCC3)CCCCC2)cc1OC | inactive: -6.4% |

| SMILES | inhibition |
| --- | --- |
| CN(C)C1(CNC(=O)c2cccc(C#N)c2)CCCCC1 | inactive: 8.38% |
| Cc1cc(N(CCCl)CCCl)ccc1C=O | inactive: 6.24% |
| CCCN1CCC(Nc2cc(OC)cc(OC)c2)CC1 | inactive: 12.7% |
| c1ccc(CN2CCC(Nc3ccccc3)CC2)cc1 | inactive: 9.6% |
| N#Cc1ccc(C(=O)NCC2(N3CCCCC3)CCCCC2)cc1 | inactive: -17.4% |
| CC(C)(C)OC(=O)N1CCC(N(C(=O)c2ccccc2)c2ccc(Cl)cc2)CC1 | inactive: -8.46% |
| O=C(NCC1(N2CCCCC2)CCCCC1)c1cccc(C(F)(F)F)c1 | inactive: 0.24% |
| O=C(NCC1(N2CCOCC2)CCCCC1)c1cc(=O)[nH]c2ccccc12 | inactive: -3.52% |
| COc1cc(C(=O)NCC2(N3CCCCC3)CCCCC2)ccc1OC(F)F | inactive: 6.73% |
| CC(C)c1ccc(C(=O)NCC2(N3CCOCC3)CCCCC2)cc1 | inactive: 27.9% |
| COc1ccc(NC2CCN(C(=O)OC(C)(C)C)CC2)cc1 | inactive: 19.1% |
| CN1CCN(CCOC(=O)C(O)(c2ccccc2)c2ccccc2)CC1 | inactive: -6.26% |
| O=C(NCC1(N2CCCCC2)CCCCC1)c1ccc(OC(F)F)cc1 | inactive: -15.1% |
| N#CC1(Nc2ccccc2)CCN(CCc2ccccc2)CC1 | inactive: -4.37% |
| CCN1CCC(Nc2ccc(Cl)cc2)CC1 | inactive: 5.92% |
| O=C(NCC1(N2CCCCC2)CCCCC1)c1cccc([N+](=O)[O-])c1 | inactive: 6.83% |
| CSc1ccc(C(=O)NCC2(N3CCOCC3)CCCCC2)cc1 | inactive: 26.7% |
| O=C(NCC1(N2CCCCC2)CCCCC1)c1cncc(Br)c1 | inactive: 7.88% |
| CN1CCC(Nc2cccc(F)c2)CC1 | inactive: -1.28% |
| CCCOc1ccc(C(=O)NCC2(N(C)C)CCCCC2)cc1OC | inactive: -5.02% |
| Cc1ccc(C(=O)NCC2(N(C)C)CCCCC2)o1 | inactive: -16.1% |
| CC(C)c1ccc(NC2CCN(C(=O)OC(C)(C)C)CC2)cc1 | inactive: 2.12% |
| CN(C)c1cccc(C(=O)NCC2(N3CCCCC3)CCCCC2)c1 | inactive: -13.8% |
| COc1ccc(CN(CCCl)CCCl)cc1Cl | inactive: 8.97% |
| O=C(NCC1(N2CCOCC2)CCCCC1)c1cc(F)c(F)cc1Cl | inactive: 4.83% |
| COc1cc(OC)c(C(=O)NCC2(N(C)C)CCCCC2)cc1OC | inactive: -7.81% |

| SMILES | inhibition |
| --- | --- |
| Cc1cc(C)cc(N(C(=O)c2ccccc2)C2CCN(C(=O)OC(C)(C)C)CC2)c1 | inactive: 16.8% |
| O=C(NCC1(N2CCCCC2)CCCCC1)c1ccc(Cl)nc1 | inactive: 5.31% |
| O=C(NCC1(N2CCOCC2)CCCCC1)c1cc2ccccc2o1 | inactive: 22.7% |
| COc1ccc(Cl)cc1C(=O)NCC1(N2CCOCC2)CCCCC1 | inactive: 25.2% |
| O=C(OC1CN2CCC1CC2)C1c2ccccc2Oc2ccccc21 (stereo unspecified) | inactive: 22.2% |
| O=C(NCC1(N2CCCCC2)CCCCC1)c1ccc(Cl)s1 | inactive: -7.1% |
| N#CC1(Nc2ccccc2)CCN(Cc2ccccc2)CC1 | inactive: -7.31% |
| CCOC(=O)N1CCC(Nc2ccc(OC)cc2)CC1 | inactive: -1.12% |
| CC(C)(C)OC(=O)N1CCC(N(C(=O)c2ccccc2)c2ccc(F)cc2)CC1 | inactive: -5.58% |
| COc1ccc(C(=O)NCC2(N3CCCCC3)CCCCC2)c(OC)c1OC | inactive: -17% |
| COc1ccc(C(=O)NCC2(N3CCCCC3)CCCCC2)cc1 | inactive: 10.6% |
| O=C(NCC1(N2CCCCC2)CCCCC1)c1cccs1 | inactive: -21.9% |
| O=C(NCC1(N2CCCCC2)CCCCC1)c1ccc(=O)[nH]c1 | inactive: -11.7% |
| Cc1cccc(NC2(C#N)CCN(Cc3ccccc3)CC2)c1 | inactive: 4.46% |
| CSc1ccccc1C(=O)NCC1(N2CCCCC2)CCCCC1 | inactive: -0.28% |
| COc1cc(C(=O)NCC2(N(C)C)CCCCC2)ccc1OC(F)F | inactive: -3.84% |
| CCOC(=O)N1CCC(Nc2cccc(C)c2)CC1 | inactive: 19.1% |
| O=C1CCN(Cc2ccccc2)CC1 | inactive: 18.4% |
| CCOc1ccc(C)cc1CN(CCCl)CCCl | inactive: 17.9% |
| CCOC(=O)N1CCC(Nc2ccc(F)cc2)CC1 | inactive: 3.85% |
| COc1ccc(NC2CCN(CCc3ccccc3)CC2)c(OC)c1 | inactive: 15.2% |
| O=C(NCC1(N2CCCCC2)CCCCC1)c1ccc(F)cc1 | inactive: 2.36% |
| CCCCOc1ccc(C(=O)NCC2(N3CCOCC3)CCCCC2)cc1 | inactive: 12.2% |
| O=P1(N(CCCl)CCCl)SCCCS1 | inactive: -1.68% |
